Experimental data taken from PMC5640672, “Molecular mechanism of synergy between the antimicrobial peptides PGLa and magainin 2” (Scientific Reports, 2017).
Several values for one entry are separate records, joined by “and”; a condition that tells them apart may be missing. Identical values can stand only once.

Assay: Solid-state 15N-NMR of peptide orientation in oriented lipid bilayers
Settings: for 15N-NMR chemical shift of the 15N-Ala10-labeled peptide + MAG2-WT: 1:1 mixture with unlabeled MAG2-WT; for 15N-NMR chemical shift of the 15N-Ala10-labeled peptide alone: P/L 1:50, 35 °C, about 90 ppm = surface, about 130 ppm = tilted, about 200 ppm = inserted
[1] = oriented DMPC/DMPG (3:1) bilayers, P/L 1:50 each, 35 °C, signal above 175 ppm = synergy
[2] = oriented DMPC/DMPG (3:1) bilayers

Row | Substance | 15N-NMR chemical shift of the 15N-Ala10-labeled peptide + MAG2-WT [1] | 15N-NMR chemical shift of the 15N-Ala10-labeled peptide alone [2] | also measured
1 | KIAGKIGKIAGKIAKIAGKIA-NH2 [MtP-A7G, MSI-103 to PGLa single mutant A7G] | 95 ppm | 105 ppm | 
2 | GMASKAGAIAGKIAKVALEAL-NH2 [PGLa-K19E-^15N-A10] (C-terminal amide; 15N-Ala10) [PGLa charge mutant K19E labeled with 15N at Ala10] |  | 165 ppm | 
3 | KIAGKAGAIAGKIAKIAGKIA-NH2 [MtP-a3, MSI-103 triple mutant I6A, A7G, K8A] | 206 ppm | 125 ppm | 
4 | GMASKAAAIAGKIAKVALKAL-NH2 (C-terminal amide; 15N-labeled Ala10) [PtM-G7A, PGLa single mutant G7A] | 138 ppm | 134 ppm | 
5 | GMASKAGAIAGKIAKVALKAL-NH2 [PGLa-WT, PGLa wild type antimicrobial peptide from Xenopus laevis skin, 15N-labeled at Ala10, reference compound] | around 200 ppm | around 130 ppm | 15N-NMR chemical shift of the 15N-Ala10-labeled peptide alone (oriented DMPC/DMPG (3:1) bilayers, listed as PGLa-^15N-A10): 133 ppm
6 | KIAGKAGAIAGKIAKVALKAL-NH2 [PtM-a2, PGLa to MSI-103 mutant, three amino acids converted] | 191 ppm | 167 ppm | 
7 | GMASKAGAIA IKIAKVALKAL-NH2 [PGLa-G11I, PGLa glycine mutant G11I] | 154 ppm | 143 ppm | 
8 | GMASKAGKIAGKIAKVALKAL-NH2 (C-terminal amide; 15N-labeled Ala10) [PtM-A8K, PGLa single mutant A8K] | 193 ppm | 143 ppm | 
9 | KIAGKIAKIAGKIAKIAGKIA-NH2 [MSI-103, designer-made AMP ([KIAGKIA]3-NH2) derived from PGLa, reference compound] | 128 ppm | 144 ppm | 
10 | KIAGKAAKIAGKIAKIAGKIA-NH2 [MtP-I6A, MSI-103 to PGLa single mutant I6A] | 124 ppm | 121 ppm | 
11 | KIAGKAGAIAGKIAKIALKIA-NH2 (C-terminal amide; 15N-Ala10) [MtP-a4, MSI-103 mutant with MtP-A3 mutations plus G18L] | 188 ppm | 163 ppm | 
12 | GMASKIAKIAGKIAKVALKAL-NH2 [PtM-a3, PGLa to MSI-103 mutant, three amino acids converted] | 160 ppm | 159 ppm | 
13 | GMASKIGAIAGKIAKVALKAL-NH2 (C-terminal amide; 15N-Ala10) [PtM-A6I, PGLa single mutant A6I] | 194 ppm | 135 ppm | 
14 | KIAGKIAKIAGKIAKVALKAL-NH2 [PtM-a1, PGLa to MSI-103 mutant, segment A replaced] | 165 ppm | 152 ppm | 
15 | GMASKAIAG A IKGAKVALKAL-NH2 [PGLa-GS2, PGLa glycine-shift mutant, GxxxG on opposite helix face] | 80 ppm | 72 ppm | 15N-NMR peak of peptides that do not engage in synergy (DMPC/DMPG, P/L 1:50, presence of MAG2 not given): 80 ppm
16 | GMASKAGAIAGKIAKVALEAL-NH2 [PGLa-K19E] (C-terminal amide) [PGLa charge mutant K19E] |  | around 160 ppm | 
17 | KIAGKIAAIAGKIAKIAGKIA-NH2 [MtP-K8A, MSI-103 to PGLa single mutant K8A] | 96 ppm | 106 ppm | 
18 | KIAGKIGKIAGKIAKIALKIA-NH2 (C-terminal amide; 15N-Ala10) [MtP-A7G-G18L, MSI-103 double mutant A7G, G18L] | 190 ppm | 159 ppm | 
19 | GMASKAGAIAGKIAKIAGKIA-NH2 [PtM-c1, PGLa to MSI-103 mutant, segment C replaced] | 215 ppm | 119 ppm | 
20 | GMASKAAAIAGKIGKVALKAL-NH2 (C-terminal amide; 15N-Ala10) [PGLa-GS1, PGLa glycine-shift mutant with GxxG motif] | 118 ppm | 122 ppm | 
21 | GIGKFLHSAKKFGKAFVGKIMNS-OH (C-terminal free acid) [MAG2-E19K, MAG2 charge mutant E19K] |  |  | 15N-NMR chemical shift of PGLa-15N-A10 in 1:1 mixture with the listed MAG2 peptide [1]: ~200 ppm and 191 ppm; 15N-NMR chemical shift of PGLa-K19E-15N-A10 in 1:1 mixture with the listed MAG2 peptide [1]: 200 ppm
